Results of unrelated studies side by side (data: NIAID ChemDB).

All rows: whole-cell or culture tests; organism: HIV-1; cell line: MT-4; measure: EC50

ECn is the concentration giving n% inhibition of infection, replication or growth. Neighbouring rows are from separate reports. Blank or dashed fields: not listed here.

SMILES	strain or isolate	changes	read by	value
O=c1[nH]cnc2c1ncn2[C@H]1CC[C@@H](CO)O1	FO-08.96 (HXB2 RT F77L F116Y Q151M)	RT-F77L F116Y Q151M	cytopathic effect	304 µM
Cc1cc([N+](=O)[O-])ccc1NC(=O)CSc1sc(Cl)nc1-c1ccc(Br)cc1Br	IIIB	K103N	MTT	38.95 µM
CC(=O)O[C@@]12C[C@@H](C)[C@@]3(O)[C@@H](C=C(CO)C[C@]4(O)C(=O)C(C)=C[C@@H]34)[C@@H]1C2(C)C	IIIB		cytopathic effect / MTT	0.09 µg/mL
CC1=NO[C@@]2(CC[C@H](C)N3C[C@H]2n2cc(C(=O)NCc4ccc(F)cc4F)c(=O)c(OCOC(=O)N(C)c4ncccc4CN(CC(=O)O)C(=O)OCOP(=O)(O)O)c2C3=O)C1	IIIB		luminescence	0.000917 µM
Cc1cc(/C=C/C#N)cc(C)c1Oc1ccnc(S(=O)(=O)CC(=O)Nc2ccc(F)cc2)n1		Y181C	MTT	0.045 µM
Cc1cc(Cl)nc(N2C(=O)CSC2c2c(Cl)cccc2Cl)n1	IIIB		cytopathic effect	51.8 µM
Cc1cn(Cc2nc3n(n2)CCCCCC3)c(=O)[nH]c1=O	IIIB			>67 µg/mL
CCOC(CN1CCN(CC(C)C(=O)c2ccccc2)CC1)c1ccccc1	LAV			>1 µg/mL
Cc1cc(-c2ccc(C#N)cc2)cc(C)c1Oc1ccnc(S(=O)(=O)CC(=O)Nc2ccc(C#N)cc2)n1	IIIB	E138K	MTT	0.026 µM
CCCC(=O)OC[C@@H](OC(=O)CCC)[C@@H](OC(=O)CCC)[C@H](Cn1c2nc(=O)[nH]c(=O)c-2nc2cc(C)c(C)cc21)OC(=O)CCC	LAV			>100 µg/mL
C/C(C#N)=C/c1cc(C)c(Nc2ccnc(Nc3ccc(C#N)cc3)n2)c(C)c1		RT-L100I	cytopathic effect / MTT	0.00316 µM
CN(Cc1cc(Br)cc(Br)c1N)C1CCCCC1	LAV			>100 µg/mL
CC(C)=CCN1Cc2cc(Cl)cc3[nH]c(=S)n(c23)C[C@@H]1C		RT-K70R L100I		<3 µM
NS(=O)(=O)c1cc(C(=O)O)c(NCc2ccco2)cc1Cl	LAV			>100 µg/mL
COc1ccc(CN[C@@H](C(=O)N[C@H](C(=O)NCc2nc3ccccc3[nH]2)C(C)C)[C@H](O)[C@H](Cc2ccccc2)NC(=O)[C@@H](NC(=O)CCc2ccc(O)cc2)C(C)(C)C)cc1	IIIB		cytopathic effect	0.039 µM
CCN(CC)C(=O)/C=C/CSc1nc(N)cc(Cl)n1	MF (DLV-resistant)		p24	<0.11 µM
COc1ccc(CN[C@@H](C(=O)N[C@H](C(=O)NCc2nc3ccccc3[nH]2)C(C)C)[C@H](O)[C@H](Cc2ccccc2)NC(=O)[C@@H](NC(=O)[C@@](C)(O)c2ccccc2)C(C)(C)C)cc1	IIIB		cytopathic effect	0.038 µM
COC1=C(OC)C(=O)C(C/C=C(\C)CC/C=C(\C)CC/C=C(\C)CC/C=C(\C)CC/C=C(/C)CC/C=C(\C)CC/C=C(\C)CC/C=C(\C)CC/C=C(\C)CCC=C(C)C)=C(C)C1=O	LAV			>100 µg/mL
Nc1ccn([C@H]2CC[C@@H](CO)O2)c(=O)n1	NI-10.93 (HXB2 RT T69N K70R Q151M)	RT-T69N K70R Q151M	cytopathic effect	7.3 µM
COC(=O)[C@H]1[C@H]2C[C@@H]3c4[nH]c5cc(OC)ccc5c4CCN3C[C@H]2C[C@@H](OC(=O)/C=C/c2cc(OC)c(OC)c(OC)c2)[C@@H]1OC	LAV			>100 µg/mL
O=C(CSc1sc(Cl)nc1-c1ccc(Br)cc1Br)Nc1ccccc1Cl	IIIB		MTT	6.59 µM
Cc1cc(C)nc(N2C(=O)CSC2c2c(F)cccc2Cl)n1	IIIB		cytopathic effect	0.038 µM
Cc1ccnc2c1NC(=O)c1cccnc1N2C1CC1		RT-K103N Y181C	cytopathic effect / MTT	>10 µM
COc1cc(C)nc(N2C(=O)CSC2c2c(F)cccc2F)n1	IIIB		cytopathic effect	0.264 µM
NC1=Nc2c(ncn2CCC(/C=C/P(=O)(O)O)CO)C(=O)C1	RF		cytopathic effect / MTT	48 µM
COc1ccc2c(c1)N(C[C@H](C)CN(C)C)c1ccccc1S2	LAV			>10 µg/mL
O=C1CSC(c2c(F)cccc2Cl)N1c1ncccn1	IIIB		cytopathic effect	0.581 µM
CCC(C1=C(O)CC2(CCCCC2)OC1=O)c1ccccc1	IIIB		p24	1 µM
O=C(CSc1sc(Cl)nc1-c1ccc(Br)cc1Br)Nc1ccccc1Br	IIIB		MTT	>8.25 µM
CC(C)[C@H](NC(=O)N(C)Cc1ccccn1)C(=O)N[C@@H](Cc1ccccc1)[C@H](O)[C@H](O)[C@H](Cc1ccccc1)NC(=O)[C@@H](NC(=O)N(C)Cc1ccccn1)C(C)C	NL4-3		p24	0.2 µM
Nc1ccn([C@H]2CC[C@@H](CO)O2)c(=O)n1	IIIB			0.06 µM
CC(C)[C@H](NC(=O)OCc1ccccc1)C(=O)N[C@@H](Cc1ccccc1)[C@@H](O)[C@@H](NCc1ccc(Cl)cc1)C(=O)N[C@H](C(=O)NCc1ccccc1)C(C)C	IIIB		MTT / p24	0.109 µM
CCN1CCCC1CNC(=O)c1cc(S(N)(=O)=O)ccc1OC	LAV			>100 µg/mL
Cc1cn([C@H]2C[C@H](N=[N+]=[N-])[C@@H](CO)O2)c(=O)[nH]c1=O		Y188L mutant	MTT	0.008 µM
CC1=NO[C@@]2(CC[C@H](C)N3C[C@H]2n2cc(C(=O)NCc4ccc(F)cc4F)c(=O)c(OCOC(=O)N4CC[C@H]4COP(=O)(O)O)c2C3=O)C1	IIIB		luminescence	0.021 µM
NC1=Nc2c(ncn2CCCCCP(=O)(O)O)C(=O)C1	RF		cytopathic effect / MTT	>320 µM
Cc1cc(CC#N)cc(C)c1Nc1ccnc(Nc2ccc(C#N)cc2)n1	LAI		cytopathic effect / MTT	0.0008 µM
Nc1nc(-c2ccc(Br)cc2Br)c(SCC(=O)Nc2cccnc2Cl)s1	IIIB		MTT	>45.73 µM
CNC(C)[C@H]1O[C@H](O[C@@H]2[C@@H](O)[C@H](O[C@@H]3OC[C@@](C)(O)[C@@H](NC)[C@@H]3O)[C@@H](NC(=O)[C@@H](N)CCCN=C(N)N)C[C@H]2NC(=O)[C@@H](N)CCCN=C(N)N)[C@H](NC(=O)[C@@H](N)CCCN=C(N)N)[C@@H](O)[C@@H]1O	RF		cytopathic effect / MTT	35 µM
CCCC1(CCC)CC(O)=C(C(c2ccccc2)C2CC2)C(=O)O1	IIIB		p24	5 µM
COc1ccc2cc([C@H](C)C(=O)O)ccc2c1	LAV			>100 µg/mL
CC(C)[C@H](NC(=O)OCc1ccccc1)C(=O)N[C@@H](Cc1ccccc1)[C@@H](O)[C@@H](NCc1ccc(Cl)cc1)C(=O)N[C@H](C(=O)NCc1nc2ccccc2[nH]1)C(C)C	IIIB		MTT / p24	0.035 µM
O=C1Nc2ccc(Cl)cc2[C@@](C#CC2CC2)(C(F)(F)F)O1	IIIB	E138K	MTT	0.108 µM
NC(=O)c1ncn([C@@H]2O[C@H](CO)[C@@H](O)[C@H]2O)n1	IIIB		cytopathic effect / trypan blue	>20 µg/mL
Cc1ccnc2c1NC(=O)c1cccnc1N2C1CC1	RES056		MTT	>15.9 µM
Cc1ccnc2c1NC(=O)c1cccnc1N2C1CC1	IIIB	L100I	MTT	1.92 µM
NC(N)=NCCCC(=O)NCC1OC(OC2C(NC(=O)CCCN=C(N)N)CC(NC(=O)CCCN=C(N)N)C(OC3CC(NC(=O)CCCN=C(N)N)C(O)C(CO)O3)C2O)C(O)C(O)C1O	NL4-3		cytopathic effect / MTT	>200 µM
Nc1ccccc1NC(=O)CSc1sc(Cl)nc1-c1ccc(Br)cc1Br	IIIB	L100I	MTT	2.23 µM
Nc1cc(Cl)nc(SCc2cccc(Br)c2)n1	RT-WT		p24	<0.35 µM
Cc1cc(C)nc(N2C(=O)CSC2c2c(F)cccc2F)n1	IIIB		cytopathic effect	0.171 µM
Cc1cn([C@H]2C[C@H](N=[N+]=[N-])[C@@H](CO)O2)c(=O)[nH]c1=O	BH10		p24 / ELISA	0.06803 µM
Cc1cccc(CSc2nc(N)cc(Cl)n2)c1	RT-WT		p24	<0.11 µM
CC(C)(C)OC(=O)N[C@@H](Cc1ccccc1)[C@H](O)[C@H](O)[C@H](Cc1ccccc1)NC(=O)OC(C)(C)C	NL4-3		p24	7 µM
Cc1cn([C@H]2C=C[C@@H](CO)O2)c(=O)[nH]c1=O	DI-06.92 (HXB2 RT-K70R)	RT-K70R	cytopathic effect	1.9 µM
COc1ccc(CN[C@@H](C(=O)N[C@H](C(=O)NCc2nc3ccccc3[nH]2)C(C)C)[C@H](O)[C@H](Cc2ccccc2)NC(=O)[C@@H](NC(=O)OCc2ccccc2)C(C)(C)C)cc1	RF		p24	0.023 µM
Cc1cc(C#N)cc(C)c1Oc1nc(Nc2ccc(C#N)cc2)nc(N)c1Br	IIIB		MTT	0.006 µM

The first 3 rows once more:

SMILES,strain or isolate,changes,read by,value
O=c1[nH]cnc2c1ncn2[C@H]1CC[C@@H](CO)O1,FO-08.96 (HXB2 RT F77L F116Y Q151M),RT-F77L F116Y Q151M,cytopathic effect,304 µM
Cc1cc([N+](=O)[O-])ccc1NC(=O)CSc1sc(Cl)nc1-c1ccc(Br)cc1Br,IIIB,K103N,MTT,38.95 µM
CC(=O)O[C@@]12C[C@@H](C)[C@@]3(O)[C@@H](C=C(CO)C[C@]4(O)C(=O)C(C)=C[C@@H]34)[C@@H]1C2(C)C,IIIB,,cytopathic effect / MTT,0.09 µg/mL